The source of these data is paper PMC6072100, “Exploring the links between peptoid antibacterial activity and toxicity” (MedChemComm, 2017).

Square brackets hold non-standard residues; d marks the D form. Peptide text beside a SMILES is read from it. N(4-F-Bzl)Gly = O=C(O)CNCc1ccc(F)cc1; Gly(N-2-aminoethyl) = NCCNCC(=O)O; Nspe = C[C@H](NCC(=O)O)c1ccccc1; Nphe = O=C(O)CNCc1ccccc1; Nlys = NCCCCNCC(=O)O

What all share (format): cell-based
The subject of data set [1] is Staphylococcus epidermidis (laboratory strain from clinical isolate). Particulars: for Average selectivity S. epidermidis: average of selectivity to HaCaT and HepG2, selectivity = toxicity/activity; for Selectivity Index HaCaT, S. epidermidis: ED50 HaCaT / MIC S. epidermidis; for Selectivity Index HepG2, S. epidermidis: ED50 HepG2 / MIC S. epidermidis. As to the method:
(§1) Escherichia coli K-12 wild-type strain (W3110/ATCC27325, F^–, λ^–, rpoS(Am), rph-1, Inv(rrnD-rrnE)), Pseudomonas aeruginosa PA01 (ATCC 15692) Staphylococcus aureus (3R7089 strain Oxford/ATCC9144) and Staphylococcus epidermidis (laboratory strain from clinical isolate) were selected for bacteriological studies as representative Gram-negative (E. coli and P. aeruginosa) and Gram-positive (S. aureus and S. epidermidis) species. Bacterial cultures were prepared by streaking bacterial strains onto LB agar plates with an inoculation loop and incubated overnight at 37 °C. A single colony was selected and placed in 5 mL of Iso-sensitest broth (Oxoid, ThermoScientific) and incubated with shaking for 16–18 h at 37 °C to provide liquid cultures for testing.
(§2) MIC values were obtained according to the protocol described by J. M. Andrews et al.[58] and were conducted in 96-well plates (Sarstedt). Bacteria were grown from overnight cultures in Iso-sensitest broth to an A650nm of 0.07 equivalent to a 0.5 MacFarland standard (240 μM BaCl2 in 0.18 M H2SO4). This culture was diluted ten-fold with Iso-sensitest broth before use. Peptoids were initially dissolved in DMSO (5 mM) and diluted further in Iso-sensitest broth to achieve a concentration range of 4–200 μM using 2-fold serial dilutions. 50 μl of inoculum and 50 μl of peptoid solution were added to each test well (final concentration range of 2–100 μM). Experiments were performed in triplicate. A positive control for bacterial growth contained only the inoculum and Iso-sensitest broth. Other controls contained the inoculum and serial dilutions of ampicillin (from 250 μg mL^–1 to 2 μg mL^–1), serial dilutions of DMSO and the inoculum to confirm no inhibitory effect on bacterial growth, and Iso-sensitest broth alone as a sterile control. […] Quantitative data was attained from absorbance values using a Biotek Synergy H4 plate reader.
(§3) Antibacterial MIC determination
(§4) Escherichia coli K-12 wild-type strain (W3110 / ATCC27325, F-, λ-, rpoS(Am), rph-1, Inv(rrnD-rrnE)), Pseudomonas aeruginosa PA01 (ATCC 15692) Staphylococcus aureus (3R7089 strain Oxford / ATCC9144) and Staphylococcus epidermidis (laboratory strain from clinical isolate) were selected for bacteriological studies as representative Gram-negative (E. coli and P. aeruginosa) and Gram-positive (S. aureus and S. epidermidis) species. Bacterial cultures were prepared by streaking bacterial strains onto LB agar plates with an inoculation loop and incubated overnight at 37 °C.
(§5) A single colony was selected and placed in 5 mL of Iso-sensitest broth (Oxoid, ThermoScientific) and incubated with shaking for 16-18 h at 37 °C to provide liquid […]
(§6) MIC values were obtained according to the protocol described by J. M. Andrews et al.1 and were conducted in 96-well plates (Sarstedt). Bacteria were grown from overnight cultures in Iso-sensitest broth to an A650nm of 0.07 equivalent to a 0.5 MacFarland standard (240 μM BaCl2 in 0.18 M H2SO4). This culture was diluted ten-fold with Iso-sensitest broth before use. Peptoids were initially dissolved in DMSO (5 mM) and diluted further in Iso-sensitest broth to achieve a concentration range of 4 – 200 µM using 2-fold serial dilutions. 50 μl of inoculum and 50 μl of peptoid solution were added to each test well (final concentration range of 2 – 100 µM). Experiments were performed in triplicate. A positive control for bacterial growth contained only the inoculum and Iso-sensitest broth. Other controls contained the inoculum and serial dilutions of ampicillin (from 250 µg/mL to 2 µg/mL), serial dilutions of DMSO and the inoculum to confirm no inhibitory effect on bacterial growth, and Iso-sensitest broth alone as a sterile control. […]
(§7) growth after incubation at 37 °C for 16 h with shaking. Quantitative data was attained from absorbance values using a Biotek Synergy H4 plate reader.

For data set [2], the system named is Staphylococcus aureus (3R7089 strain Oxford/ATCC9144). The settings on record: for Average selectivity S. aureus: average of selectivity to HaCaT and HepG2, selectivity = toxicity/activity; for Selectivity Index HaCaT, S. aureus: ED50 HaCaT / MIC S. aureus; for Selectivity Index HepG2, S. aureus: ED50 HepG2 / MIC S. aureus. The method, then:
as §1, §2, §3, §4, §5, §6, §7

Data set [3] relates to Pseudomonas aeruginosa PA01 (ATCC 15692). Particulars: average of selectivity to HaCaT and HepG2; selectivity = toxicity/activity. As to the method:
as §1, §2, §3, §4, §5, §6, §7

As to `NCCCCNCC(=O)N(CC(=O)N(CC(=O)N(CCCCN)CC(=O)N(CC(=O)N(CC(=O)N(CCCCN)CC(=O)N(CC(=O)N(CC(=O)N(CCCCN)CC(=O)N(CC(=O)N(CC(N)=O)Cc1ccccc1)Cc1ccccc1)Cc1ccccc1)Cc1ccccc1)Cc1ccccc1)Cc1ccccc1)Cc1ccccc1)Cc1ccccc1` [Peptoid 4, (NLysNpheNphe)4] (H-[Nlys][Nphe][Nphe][Nlys][Nphe][Nphe][Nlys][Nphe][Nphe][Nlys][Nphe][Nphe]-NH2), the “Average selectivity S. epidermidis” value in data set [1] is on record as over 34. Further, in data set [2], the “Average selectivity S. aureus” value is over 23.
In the case of `NCCCCNCC(=O)N(CC(=O)N(CC(=O)N(CCCCN)CC(=O)N(CC(=O)N(CC(=O)N(CCCCN)CC(=O)N(CC(=O)N(CC(N)=O)Cc1ccccc1)Cc1ccccc1)Cc1ccccc1)Cc1ccccc1)Cc1ccccc1)Cc1ccccc1` [Peptoid 5, (NLysNpheNphe)3], the “Average selectivity S. epidermidis” value in data set [1] is given as over 17. For the same compound, the “Average selectivity S. aureus” value in data set [2] was over 4.
Regarding `NCCNCC(=O)N(CC(=O)N(CC(=O)N(CCN)CC(=O)N(CC(=O)N(CC(=O)N(CCN)CC(=O)N(CC(=O)N(CC(N)=O)Cc1ccccc1)Cc1ccccc1)Cc1ccccc1)Cc1ccccc1)Cc1ccccc1)Cc1ccccc1` [Peptoid 8, (NaeNpheNphe)3] (H-[Gly(N-2-aminoethyl)][Nphe][Nphe][Gly(N-2-aminoethyl)][Nphe][Nphe][Gly(N-2-aminoethyl)][Nphe][Nphe]-NH2), the “Average selectivity S. aureus” value in data set [2] is listed as over 8.
Turning to `C[C@@H](c1ccccc1)N(CC(N)=O)C(=O)CN(C(=O)CN(CCCCN)C(=O)CN(C(=O)CN(C(=O)CN(CCCCN)C(=O)CN(C(=O)CN(C(=O)CN(CCCCN)C(=O)CN(C(=O)CN(C(=O)CNCCCCN)[C@@H](C)c1ccccc1)[C@@H](C)c1ccccc1)[C@@H](C)c1ccccc1)[C@@H](C)c1ccccc1)[C@@H](C)c1ccccc1)[C@@H](C)c1ccccc1)[C@@H](C)c1ccccc1` [Peptoid 13, (NLysNspeNspe)4] (H-[Nlys][Nspe][Nspe][Nlys][Nspe][Nspe][Nlys][Nspe][Nspe][Nlys][Nspe][Nspe]-NH2), in data set [1], the “Selectivity Index HaCaT, S. epidermidis” value is 20 and the “Selectivity Index HepG2, S. epidermidis” value came out at 29. For the same compound, in data set [2], the “Selectivity Index HaCaT, S. aureus” value was determined as 10 and the “Selectivity Index HepG2, S. aureus” value turned out to be 15.
Consider `C[C@@H](c1ccccc1)N(CC(N)=O)C(=O)CN(C(=O)CN(CCCCN)C(=O)CN(C(=O)CN(C(=O)CN(CCCCN)C(=O)CN(C(=O)CN(C(=O)CNCCCCN)[C@@H](C)c1ccccc1)[C@@H](C)c1ccccc1)[C@@H](C)c1ccccc1)[C@@H](C)c1ccccc1)[C@@H](C)c1ccccc1` [Peptoid 14, (NLysNspeNspe)3] (H-[Nlys][Nspe][Nspe][Nlys][Nspe][Nspe][Nlys][Nspe][Nspe]-NH2), for which, in data set [1], the “Selectivity Index HaCaT, S. epidermidis” value is on record as over 50; the “Selectivity Index HepG2, S. epidermidis” value is recorded as over 50; the “Average selectivity S. epidermidis” value is reported as over 50. In data set [2], the “Selectivity Index HaCaT, S. aureus” value is listed as over 50; the “Selectivity Index HepG2, S. aureus” value was over 50; the “Average selectivity S. aureus” value is recorded as over 50.
Regarding `C[C@@H](c1ccccc1)N(CC(N)=O)C(=O)CN(C(=O)CN(CCCCN)C(=O)CN(C(=O)CN(C(=O)CNCCCCN)[C@@H](C)c1ccccc1)[C@@H](C)c1ccccc1)[C@@H](C)c1ccccc1` [Peptoid 15, (NLysNspeNspe)2] (H-[Nlys][Nspe][Nspe][Nlys][Nspe][Nspe]-NH2), the “Average selectivity S. epidermidis” value in data set [1] was over 4.
In the case of `C[C@@H](c1ccccc1)N(CC(N)=O)C(=O)CN(C(=O)CN(CCN)C(=O)CN(C(=O)CN(C(=O)CN(CCN)C(=O)CN(C(=O)CN(C(=O)CNCCN)[C@@H](C)c1ccccc1)[C@@H](C)c1ccccc1)[C@@H](C)c1ccccc1)[C@@H](C)c1ccccc1)[C@@H](C)c1ccccc1` [Peptoid 17, (NaeNspeNspe)3], in data set [1], the “Selectivity Index HaCaT, S. epidermidis” value is listed as over 8; the “Selectivity Index HepG2, S. epidermidis” value is on record as over 8; the “Average selectivity S. epidermidis” value is listed as over 8. Also, in data set [2], the “Selectivity Index HaCaT, S. aureus” value is given as over 50; the “Selectivity Index HepG2, S. aureus” value is over 50; the “Average selectivity S. aureus” value is over 50.
Regarding `COc1ccc(CN(CC(N)=O)C(=O)CN(Cc2ccc(OC)cc2)C(=O)CN(CCCCN)C(=O)CN(Cc2ccc(OC)cc2)C(=O)CN(Cc2ccc(OC)cc2)C(=O)CN(CCCCN)C(=O)CN(Cc2ccc(OC)cc2)C(=O)CN(Cc2ccc(OC)cc2)C(=O)CN(CCCCN)C(=O)CN(Cc2ccc(OC)cc2)C(=O)CN(Cc2ccc(OC)cc2)C(=O)CNCCCCN)cc1` [Peptoid 19, (NLysNpmbNpmb)4], the “Average selectivity S. aureus” value in data set [2] is listed as over 24.
On to `NCCCCNCC(=O)N(CC(=O)N(CC(=O)N(CCCCN)CC(=O)N(CC(=O)N(CC(=O)N(CCCCN)CC(=O)N(CC(=O)N(CC(=O)N(CCCCN)CC(=O)N(CC(=O)N(CC(N)=O)Cc1ccc(F)cc1)Cc1ccc(F)cc1)Cc1ccc(F)cc1)Cc1ccc(F)cc1)Cc1ccc(F)cc1)Cc1ccc(F)cc1)Cc1ccc(F)cc1)Cc1ccc(F)cc1` [Peptoid 22, (NLysNpfbNpfb)4] (H-[Nlys][N(4-F-Bzl)Gly][N(4-F-Bzl)Gly][Nlys][N(4-F-Bzl)Gly][N(4-F-Bzl)Gly][Nlys][N(4-F-Bzl)Gly][N(4-F-Bzl)Gly][Nlys][N(4-F-Bzl)Gly][N(4-F-Bzl)Gly]-NH2), for which the “Average selectivity P. aeruginosa” value in data set [3] is reported as 2.
For the compound `C[C@@H](c1ccccc1)N(CC(N)=O)C(=O)CN(C(=O)CN(CCCCN)C(=O)CN(Cc1ccc(F)cc1)C(=O)CN(Cc1ccc(F)cc1)C(=O)CN(CCCCN)C(=O)CN(C(=O)CN(C(=O)CN(CCCCN)C(=O)CN(Cc1ccc(F)cc1)C(=O)CN(Cc1ccc(F)cc1)C(=O)CNCCCCN)[C@@H](C)c1ccccc1)[C@@H](C)c1ccccc1)[C@@H](C)c1ccccc1` [Peptoid 28, [(NLysNpfbNpfb)(NLysNspeNspe)]2], in data set [1], the “Average selectivity S. epidermidis” value is given as over 78. Also, the “Average selectivity S. aureus” value in data set [2] is over 39.
Taken in the same sequence, the figures for `CCCCCNCC(=O)N(CC(=O)N(CC(=O)N(CCCCN)CC(=O)N(CC(=O)N(CC(=O)N(CCCCN)CC(=O)N(CC(=O)N(CC(=O)N(CCCCN)CC(=O)N(CC(=O)N(CC(N)=O)[C@@H](C)c1ccccc1)[C@@H](C)c1ccccc1)[C@@H](C)c1ccccc1)[C@@H](C)c1ccccc1)[C@@H](C)c1ccccc1)[C@@H](C)c1ccccc1)[C@@H](C)c1ccccc1)[C@@H](C)c1ccccc1` [Peptoid 30, (NamyNspeNspe)[(NLysNspeNspe)]3] were 7 and 7.
For the compound `CCCCCNCC(=O)N(CC(=O)N(CC(=O)N(CCCCC)CC(=O)N(CC(=O)N(CC(=O)N(CCCCN)CC(=O)N(CC(=O)N(CC(=O)N(CCCCN)CC(=O)N(CC(=O)N(CC(N)=O)[C@@H](C)c1ccccc1)[C@@H](C)c1ccccc1)[C@@H](C)c1ccccc1)[C@@H](C)c1ccccc1)[C@@H](C)c1ccccc1)[C@@H](C)c1ccccc1)[C@@H](C)c1ccccc1)[C@@H](C)c1ccccc1` [Peptoid 31, (NamyNspeNspe)2(NLysNspeNspe)2], in data set [1], the “Average selectivity S. epidermidis” value is 19. The “Average selectivity S. aureus” value in data set [2] worked out at 10.
Turning to `CCCCCN(CC(=O)N(CC(=O)N(CC(=O)N(CCCCN)CC(=O)N(CC(=O)N(CC(N)=O)[C@@H](C)c1ccccc1)[C@@H](C)c1ccccc1)[C@@H](C)c1ccccc1)[C@@H](C)c1ccccc1)C(=O)CN(C(=O)CN(C(=O)CN(CCCCN)C(=O)CN(C(=O)CN(C(=O)CNCCCCN)[C@@H](C)c1ccccc1)[C@@H](C)c1ccccc1)[C@@H](C)c1ccccc1)[C@@H](C)c1ccccc1` [Peptoid 32, (NLysNspeNspe)2(NamyNspeNspe)(NLysNspeNspe)], in data set [1], the “Average selectivity S. epidermidis” value came to 11. The “Average selectivity S. aureus” value in data set [2] turned out to be 4.
